Experimental data taken from US10010619B2, “Bipartite inhibitors of bacterial RNA polymerase” (priority 2011, dated 2018).

Sequences of proteins named here, by UniProt entry; tags and fusion partners are left off. A change or cut given only in a name is not applied to a line headed by its entry.
UniProt P0A8V2: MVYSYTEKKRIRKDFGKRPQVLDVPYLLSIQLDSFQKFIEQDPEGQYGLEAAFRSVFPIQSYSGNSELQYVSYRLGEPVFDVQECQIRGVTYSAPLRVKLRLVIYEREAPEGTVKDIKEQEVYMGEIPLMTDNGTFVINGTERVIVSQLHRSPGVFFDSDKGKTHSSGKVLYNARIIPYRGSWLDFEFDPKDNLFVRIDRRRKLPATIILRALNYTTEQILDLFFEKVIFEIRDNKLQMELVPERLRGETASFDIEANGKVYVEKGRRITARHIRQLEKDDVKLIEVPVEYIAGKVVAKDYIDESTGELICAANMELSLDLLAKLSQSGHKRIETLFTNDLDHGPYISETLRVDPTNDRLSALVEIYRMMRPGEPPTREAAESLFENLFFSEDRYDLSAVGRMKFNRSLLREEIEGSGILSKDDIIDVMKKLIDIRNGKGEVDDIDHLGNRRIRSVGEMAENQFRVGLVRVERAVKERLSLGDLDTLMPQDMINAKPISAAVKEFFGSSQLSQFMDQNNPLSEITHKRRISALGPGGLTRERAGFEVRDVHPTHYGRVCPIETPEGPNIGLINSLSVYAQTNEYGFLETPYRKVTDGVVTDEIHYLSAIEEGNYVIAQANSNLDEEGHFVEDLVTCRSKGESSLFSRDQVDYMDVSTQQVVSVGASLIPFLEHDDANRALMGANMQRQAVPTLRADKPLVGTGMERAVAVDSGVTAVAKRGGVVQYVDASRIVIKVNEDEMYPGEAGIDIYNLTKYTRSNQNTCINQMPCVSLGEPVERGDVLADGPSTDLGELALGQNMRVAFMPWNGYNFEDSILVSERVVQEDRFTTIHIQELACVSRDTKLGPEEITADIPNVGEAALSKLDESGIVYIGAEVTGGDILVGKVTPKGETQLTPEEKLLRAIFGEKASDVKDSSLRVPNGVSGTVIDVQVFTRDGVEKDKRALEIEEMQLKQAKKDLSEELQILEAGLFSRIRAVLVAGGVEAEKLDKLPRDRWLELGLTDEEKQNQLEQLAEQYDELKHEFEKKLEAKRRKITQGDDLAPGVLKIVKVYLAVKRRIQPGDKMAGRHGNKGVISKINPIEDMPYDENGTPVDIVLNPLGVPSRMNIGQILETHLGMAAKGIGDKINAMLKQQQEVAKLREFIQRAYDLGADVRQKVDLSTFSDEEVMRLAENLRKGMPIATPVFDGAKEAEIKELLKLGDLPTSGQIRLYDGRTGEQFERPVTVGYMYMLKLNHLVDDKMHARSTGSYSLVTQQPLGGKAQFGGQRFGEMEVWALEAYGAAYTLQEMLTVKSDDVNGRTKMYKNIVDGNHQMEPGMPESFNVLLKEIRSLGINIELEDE

Target: T1, GE23077-resistant Escherichia coli RNAP derivative ([Asp565]β-RNAP) (Escherichia coli, UniProt P0A8V2, E565D)
T1 construct: made in house
Assay type: biochemical
Description: Fluorescence-detected RNA polymerase assays with E. coli RNA polymerase were performed by a modification of the procedure of Kuhlman et al., 2004 [Kuhlman, P., Duff, H. and Galant, A. (2004) A fluorescence-based assay for multisubunit DNA-dependent RNA polymerases. Anal. Biochem. 324, 183-190]. Reaction mixtures contained (20 μl): 0-100 nM test compound, 75 nM Escherichia coli RNA polymerase σ^70 holoenzyme or Escherichia coli RNA polymerase σ^70 holoenzyme derivative (prepared as in Feklistov, A., Mekler, V., Jiang, Q., Westblade, L., Irschik, H., Jansen, R., Mustaev, A., Darst, S., and Ebright, R. (2008) Proc. Natl. Acad. Sci. USA 105, 14820-14825), 20 nM 384 bp DNA fragment containing the bacteriophage […] N25 promoter, 100 μM ATP, 100 μM GTP, 100 μM UTP, 100 μM CTP, 50 mM Tris-HCl, pH 8.0, 100 mM KCl, 10 mM MgCl2, 1 mM DTT, 10 μg/ml bovine serum albumin, and 5.5% glycerol. Reaction components other than DNA and NTPs were pre-incubated for 10 min at 37° C. […] RNA was quantified by addition of 100 μl RiboGreen RNA Quantitation Reagent (Invitrogen, Inc.; 1:500 dilution in Tris-HCl, pH 8.0, 1 mM EDTA), followed by incubation for 10 min at 25° C., followed by measurement of fluorescence intensity [excitation wavelength=485 nm and emission wavelength=535 nm; QuantaMaster QM1 spectrofluorimeter (PTI, Inc.)]. […]

## GE23077 [reference compound]
  IC50: > 100 µM
